Compound potency records, mixed from different reports. Data source: NIAID ChemDB in PubChem.

All rows: tests in culture; species: Mycobacterium tuberculosis

Rows are shuffled and stem from different studies. MIC50, MIC90 and the like: level of inhibition, or share of isolates inhibited. MIC bound comes from a single tested concentration. Inhibition is in % at the dose shown (toxicity tests: loss of growth or viability). ECn: concentration that inhibits the pathogen or its effect by n%. For "inactive" no cut-off is given. Blank or dashed fields: not listed here.

compound,tested at,endpoint,strain or isolate,read by,result
CCc1cc(C(N)=S)ccn1,-,MIC,-,-,2 µg/mL
CCN(CC)C(=S)[S][Bi]([S]C(=S)N(CC)CC)[S]C(=S)N(CC)CC,-,MIC,PZA-R,-,1.6 µg/mL
Nc1ccc(Cc2ccc(N)c(N)c2)c(N)c1,-,MIC,H37Rv,-,>100 µg/mL
Cc1ccc2nc(Cl)c(/C=C3/C=C(c4ccccc4)OC3=O)cc2c1,-,EC50,H37Rv,resazurin,49.85 µg/mL
O=C(Nc1ccc(Cl)c(Cl)c1)C(=O)Nn1c(=S)[nH]c2ccccc2c1=O,12.5 µg/mL,inhibition,H37Rv,BACTEC,-2%
CCc1nc2ncc(C)cn2c1C(=O)NCc1ccc(N2CCN(S(=O)(=O)C(F)(F)F)C(OC)=N2)c(F)c1,-,EC50,-,GFP,0.00089 µM
c1ccc2c(c1)Sc1ccccc1N2CCN1CCOCC1,-,MIC,H37Rv,-,>100 µg/mL
CO[C@H]1/C=C/O[C@@]2(C)Oc3c(C)c(O)c4c(O)c(c(/C=N/N5CCN(C)CC5)c(O)c4c3C2=O)NC(=O)/C(C)=C\C=C\[C@H](C)[C@H](O)[C@@H](C)[C@@H](O)[C@@H](C)[C@H](OC(C)=O)[C@@H]1C,-,MIC,H37Rv,broth dilution,≤0.007 µg/mL
Nc1nc(N)nc(-c2ccc(OC(c3ccccc3)c3ccccc3)cc2)n1,-,MIC,H37Rv,resazurin,18.87 µM
COc1cc(/C=C2\SC(=S)N(CCC(=O)NNC(=O)c3ccccc3)C2=O)cc(OC)c1OC,-,MIC,H37Rv,-,6.24 µM
CCN(CC)Cc1c2c(O)c3c(O)c(C)c4c(c3c1O)C(=O)[C@@](C)(O/C=C/[C@H](OC)[C@@H](C)[C@@H](O)[C@H](C)[C@H](O)[C@H](C)[C@@H](O)[C@@H](C)/C=C/C=C(/C)C(=O)N2)O4,-,MIC,-,-,2 µg/mL
CC(O)c1cccc(N)c1,-,MIC,H37Rv,-,>100 µg/mL
CC(=O)O[C@@H]1[C@@H](O)C2=C3[C@]4(C)[C@@H]1C(C)(C)C(=O)C[C@@H]4[C@]3(O)[C@H](OC(C)=O)[C@@]1(C[C@H]1C)C2=O,12.5 µg/mL,inhibition,H37Rv,BACTEC,8%
CO[C@H]1/C=C/O[C@@]2(C)Oc3c(C)c(O)c4c(c3C2=O)C2(C=C(NC(=O)/C(C)=C\C=C\[C@H](C)[C@H](O)[C@@H](C)[C@@H](O)[C@@H](C)[C@H](OC(C)=O)[C@@H]1C)C4=O)OCC(=O)O2,-,MIC,-,-,75 µg/mL
CC(Oc1ccc(-c2nc(N)nc(N)n2)cc1)c1ccc(Cl)cc1Cl,-,MIC,H37Rv,resazurin,245 µM
CCN(CC)CCCC(C)Nc1ncnc2cc(Cl)ccc12,-,MIC,H37Rv,-,>100 µg/mL
CO[C@H]1/C=C/O[C@@]2(C)Oc3c(C)c(O)c4c(O)c(c(/C=N/N=C/[n+]5cccc6ccccc65)c(O)c4c3C2=O)NC(=O)/C(C)=C\C=C\[C@H](C)[C@H](O)[C@@H](C)[C@@H](O)[C@@H](C)[C@H](OC(C)=O)[C@@H]1C,-,MIC,H37Rv,-,0.02 µg/mL
O=C(c1ccccn1)c1nnn2ccccc12,6.25 µg/mL,inhibition,H37Rv,resazurin,23%
Cc1cc(=O)oc2cc(OCc3nnc(NC(=O)c4cccc(Br)c4)o3)ccc12,-,EC50,H37Rv,resazurin,>100 µg/mL
CO[C@H]1/C=C/O[C@@]2(C)Oc3c(C)c(O)c4c(O)c(c(/C=N/N5CCN(C)CC5)c(O)c4c3C2=O)NC(=O)/C(C)=C\C=C\[C@H](C)[C@H](O)[C@@H](C)[C@@H](O)[C@@H](C)[C@H](OC(C)=O)[C@@H]1C,-,MIC,-,-,0.5 µg/mL
CN1C(=O)C(O)(C2=C3OCOC3=CC(=O)C2=O)c2ccccc21,-,MIC bound,H37Rv,resazurin,>6.25 µg/mL
COC(=O)c1ccc2oc3ccc([N+](=O)[O-])cc3c(=O)c2c1,16 µg/mL,inhibition,H37Rv,-,inactive
CC(=O)OC1(C)OC(=O)C(C)N1[N+](=O)[O-],-,MIC bound,H37Rv,BACTEC,>12.5 µg/mL
N#CCc1cccc2ccccc12,-,MIC,H37Rv,-,100 µg/mL
Cc1ccc2oc3ccccc3c(=O)c2c1[N+](=O)[O-],16 µg/mL,inhibition,H37Rv,-,inactive
CC/C(C)=C1\OC(=O)[C@H](C)[C@@H](O)[C@H](Cc2cccnc2)NC(=O)[C@@H](NC(=O)c2ncccc2O)[C@@H](C)OC1=O,-,MIC bound,H37Rv,BACTEC,>12.5 µg/mL
COc1cccc(C(=O)Nc2nnc(COc3ccc4c(C)cc(=O)oc4c3)o2)c1,-,EC50,H37Rv,resazurin,>100 µg/mL
N[C@@H]1CONC1=O,-,MIC,-,-,10 µg/mL
O=C(CCN1C(=O)/C(=C/c2ccc(Cl)cc2)SC1=S)NNC(=O)c1ccccc1,-,MIC,H37Rv,-,56.18 µM
Nc1ncnc2c1ncn2[C@H]1O[C@@H](CO)[C@H](NC(=S)SCc2ccccc2)[C@@H]1O,6.25 µg/mL,inhibition,H37Rv,resazurin,-2%
O=C(CCN1C(=O)/C(=C/c2ccc([N+](=O)[O-])cc2)SC1=S)NNC(=O)c1ccncc1,-,MIC,H37Rv,-,1.54 µM
CCN(CC)c1nc2c(s1)c1c(O)c3c(O)c(C)c4c(c32)C(=O)[C@@](C)(O/C=C/[C@H](OC)[C@@H](C)[C@@H](OC(C)=O)[C@H](C)[C@H](O)[C@H](C)[C@@H](O)[C@@H](C)/C=C/C=C(/C)C(=O)N1)O4,-,MBC,H37Rv,-,2 µg/mL
CO[C@@H]1[C@@H](O[C@@H]2O[C@H](C)[C@@H](O[C@H]3C[C@@](C)(O)[C@@H](OC(=O)CC(C)C)[C@H](C)O3)[C@H](N(C)C)[C@H]2O)[C@@H](CC=O)C[C@@H](C)[C@@H](O)/C=C/C=C/C[C@@H](C)OC(=O)C[C@H]1OC(C)=O,-,MIC bound,H37Rv,BACTEC,>12.8 µg/mL
COc1ccc(-c2nc(N)nc(N)n2)cc1OCc1ccc(Cl)cc1,-,MIC,H37Rv,resazurin,4.92 µM
CC(=O)O[C@H]1C(=O)[C@]2(C)[C@@H](OC(C)=O)C[C@H]3OC[C@@]3(OC(C)=O)[C@H]2[C@H](OC(=O)c2ccccc2)[C@]2(O)C[C@H](OC(=O)[C@H](OC(C)=O)[C@@H](NC(=O)c3ccccc3)c3ccccc3)C(C)=C1C2(C)C,-,MIC,RMP-R,-,>12.5 µg/mL
O=C(O)c1ccc2oc3c(C(=O)O)cccc3c(=O)c2c1,32 µg/mL,inhibition,H37Rv,-,inactive
O=C(O)CCCCOc1ccccc1,-,MIC,H37Rv,-,50 µg/mL
O=C(CCN1C(=O)/C(=C/c2ccc(OCc3ccccc3)cc2)SC1=S)NNC(=O)c1ccncc1,-,MIC,H37Rv,-,24.13 µM
CCC(Oc1ccc(-c2nc(N)nc(N)n2)cc1)c1ccccc1,-,MIC,H37Rv,resazurin,40.86 µM
O=C(c1ccccc1)c1cc(Cl)ccc1Cl,-,MIC,H37Rv,-,25 µg/mL
CC1CN(S(=O)(=O)c2ccccc2)C(C)CN1S(=O)(=O)c1ccccc1,12.5 µg/mL,inhibition,H37Rv,BACTEC,0%
CC(=O)Nc1cc(Cl)cc2cccnc12,-,MIC,H37Rv,-,100 µg/mL
CO[C@H]1/C=C/O[C@@]2(C)Oc3c(C)c(O)c4c(c3C2=O)C(=O)C=C(NC(=O)/C(C)=C\C=C\[C@H](C)[C@H](O)[C@@H](C)[C@@H](O)[C@@H](C)[C@H](OC(C)=O)[C@@H]1C)C4=O,-,MIC,-,-,12 µg/mL
COC(=O)c1ccc(=O)c2nc3/c(=C\O)c(O)cc(=O)c3[nH]c12,128 µg/mL,inhibition,H37Rv,BACTEC,100%
COc1ccc(C2=C/C(=C/c3cc4cc(C)ccc4nc3Cl)C(=O)O2)cc1,-,EC50,H37Rv,resazurin,>100 µg/mL
CN(C)c1ccc(-c2ccc3ccccc3n2)cc1,-,MIC,H37Rv,-,>100 µg/mL
Cc1ccc(C2=C/C(=C/c3cc4cc(Cl)ccc4nc3Cl)C(=O)O2)cc1,-,EC50,H37Rv,resazurin,>100 µg/mL
COC(=O)c1ccc2oc3ccccc3c(=O)c2c1,16 µg/mL,inhibition,H37Rv,-,inactive
O=C(O)CC(=O)O,-,MIC,H37Rv,-,>100 µg/mL
CO[C@H]1/C=C/O[C@@]2(C)Oc3c(C)c(O)c4c(c3C2=O)C(=O)C=C(NC(=O)/C(C)=C\C=C\C(C)(O)C(=O)[C@@H](C)[C@@H](O)[C@@H](C)[C@H](OC(C)=O)[C@@H]1C)C4=O,-,MIC,-,-,>10 µg/mL
Cc1ccc2nc(Cl)c(/C=C3/C=C(c4ccc(Cl)cc4)OC3=O)cc2c1,-,EC50,H37Rv,resazurin,>100 µg/mL
CCOc1ccccc1N(C)C=O,-,MIC,H37Rv,-,>100 µg/mL
O=C(O)c1cccc2oc3ccccc3c(=O)c12,4 µg/mL,inhibition,H37Rv,-,inactive
CC1COc2c(N3CCN(C)CC3)c(F)cc3c(=O)c(C(=O)O)cn1c23,-,MIC90,100 isolates,-,2 µg/mL
CCCCN(CCCC)CCCC(O)c1cc(-c2ccccc2)nc2ccc(OC)cc12.Cl,-,MIC,H37Rv,-,25 µg/mL
Cc1ccc(C2=C/C(=C/c3cc4cc(C)ccc4nc3Cl)C(=O)O2)cc1,-,EC50,H37Rv,resazurin,>100 µg/mL
COc1ccc(C(=O)/C=C/c2ccc(O)cc2)c(OC)c1OC,-,MIC,H37Ra,-,>606 µM
CC(C)=CC(=O)O[C@H]1[C@@H]2[C@H](C)C(=O)O[C@@H]2C[C@@H](C)[C@@H]2[C@@H](O)CC(=O)[C@]21C,-,MIC,H37Rv,BACTEC,≥12.8 µg/mL
C[C@@H]1CN(c2c(F)c(N)c3c(=O)c(C(=O)O)cn(C4CC4)c3c2F)C[C@H](C)N1,-,MIC90,100 isolates,-,2 µg/mL
O=C1CSC(=O)N1,-,MIC,H37Rv,-,>100 µg/mL
O=C(Nc1ccc(Cl)cc1)Nc1nnc2nc(C(C(=O)c3ccc(O)cc3O)c3nc4nnc(NC(=O)Nc5ccc(Cl)cc5)n4[nH]c3=O)c(=O)[nH]n12,-,MIC bound,H37Rv,BACTEC,>12.5 µg/mL
CO[C@H]1/C=C/O[C@@]2(C)Oc3c(C)c(O)c4c(O)c(c(/C=N/N=C/N(C)C)c(O)c4c3C2=O)NC(=O)/C(C)=C\C=C\[C@H](C)[C@H](O)[C@@H](C)[C@@H](O)[C@@H](C)[C@H](OC(C)=O)[C@@H]1C,-,MIC,H37Rv,-,0.02 µg/mL
CN1C(=O)C2SC(=NNc3ccccc3)SC1C(=O)N2C,-,MIC,H37Rv,BACTEC,>12.5 µg/mL
O=C(/C=C/c1ccccc1)c1ccc(Cl)cc1,-,MIC,H37Rv,-,>100 µg/mL
COc1c(O)cc2c(c1O)[C@@H]1O[C@H](CO)[C@@H](O)[C@H](O)[C@H]1OC2=O,-,MIC bound,H37Rv,BACTEC,>12.5 µg/mL
Oc1ccc(O)c(Br)c1,-,MIC,H37Rv,-,>100 µg/mL
CCOC(=O)c1[nH]c(=O)c2ccccc2c1O,12.5 µg/mL,inhibition,H37Rv,BACTEC,22%
COc1cc(NCCCN2C(=O)c3ccccc3C2=O)c2ncccc2c1,-,MIC,H37Rv,-,100 µg/mL
CCSC(C[C@@H](O)[C@H](O)[C@H](O)CO)SCC,-,MIC bound,H37Rv,-,>6.25 µg/mL
O=C(O)c1ccc([N+](=O)[O-])cc1Cl,-,MIC,H37Rv,-,>100 µg/mL
COc1ccc(C2CC(=O)c3c(cc(OC)c(OC)c3OC)O2)cc1,-,MIC,H37Ra,-,>581.4 µM
CC(=O)OC(C)(C)C1CC=C(C)CC1,-,MIC,H37Rv,-,>100 µg/mL
Cn1c2c(c(=O)c3c4[nH]c5c(c(=O)c4ccc31)CCCC5)CCCC2,-,MIC,H37Rv,BACTEC,≥12.5 µg/mL
O=[N+]([O-])c1ccc(/C=C/c2ccccn2)cc1,-,MIC,H37Rv,-,100 µg/mL
O=C(O)c1cc([N+](=O)[O-])c2oc3ccc([N+](=O)[O-])cc3c(=O)c2c1,32 µg/mL,inhibition,H37Rv,-,inactive
COc1ccc(-c2cc(=O)c3c(O)cc(O)cc3o2)cc1,-,MIC,H37Ra,-,704.2 µM
c1ccc([Si](c2ccccc2)(c2ccccc2)c2ccccc2)cc1,-,MIC,H37Rv,-,>100 µg/mL
CCCCCCCCC(=S)N1CCN(c2ccccc2)CC1,6.25 µg/mL,inhibition,H37Rv,resazurin,17%
COC1=NC2=CC(=O)c3c(c(O)c(C)c4c3C(=O)[C@@](C)(O/C=C/[C@H](OC)[C@@H](C)[C@@H](OC(C)=O)[C@H](C)[C@H](O)[C@H](C)[C@@H](O)[C@@H](C)/C=C/C=C\1C)O4)C2=O,-,MIC,-,-,>10 µg/mL

The first 7 rows once more:

CCc1cc(C(N)=S)ccn1 ; endpoint: MIC ; result: 2 µg/mL
CCN(CC)C(=S)[S][Bi]([S]C(=S)N(CC)CC)[S]C(=S)N(CC)CC ; endpoint: MIC ; strain or isolate: PZA-R ; result: 1.6 µg/mL
Nc1ccc(Cc2ccc(N)c(N)c2)c(N)c1 ; endpoint: MIC ; strain or isolate: H37Rv ; result: >100 µg/mL
Cc1ccc2nc(Cl)c(/C=C3/C=C(c4ccccc4)OC3=O)cc2c1 ; endpoint: EC50 ; strain or isolate: H37Rv ; read by: resazurin ; result: 49.85 µg/mL
O=C(Nc1ccc(Cl)c(Cl)c1)C(=O)Nn1c(=S)[nH]c2ccccc2c1=O ; tested at: 12.5 µg/mL ; endpoint: inhibition ; strain or isolate: H37Rv ; read by: BACTEC ; result: -2%
CCc1nc2ncc(C)cn2c1C(=O)NCc1ccc(N2CCN(S(=O)(=O)C(F)(F)F)C(OC)=N2)c(F)c1 ; endpoint: EC50 ; read by: GFP ; result: 0.00089 µM
c1ccc2c(c1)Sc1ccccc1N2CCN1CCOCC1 ; endpoint: MIC ; strain or isolate: H37Rv ; result: >100 µg/mL